Pooled drug test results. Numbers come from NIAID ChemDB, via PubChem.

Shared fields: growth or infection tests; species: HIV-1; measure: EC50

a–b is a range or a potency band. ECn: concentration that inhibits the pathogen or its effect by n%. An empty or dashed field is not shown. Lines come from different laboratories, so protocols vary.

SMILES,mutations,cells,strain or isolate,read by,result
Cc1ccc(OCCNc2ccc(-c3cnc(C)c([C@H](OC(C)(C)C)C(=O)O)c3N3CCC(C)(C)CC3)cn2)c(C)c1,-,MT-2,NL4-3,luminescence,0.004 µM
C#C[C@@]1(CO)C=C[C@H](n2cc(C)c(=O)[nH]c2=O)O1,A62V/V75I/F77L/F116L/Q151M/M184V,MT-2,Clinical isolate,recombinant virus assay,8.075 µM
CC(C)C1=C2[C@H]3CC[C@@H]4[C@@]5(C)CC[C@H](OC(=O)[C@H]6C[C@@H](C(=O)O)C6(C)C)C(C)(C)[C@@H]5CC[C@@]4(C)[C@]3(C)CC[C@@]2(CCNC(=O)c2ccc(Cl)cc2O[C@H]2CCOC2)CC1=O,-,MT-2,92HT599,p24 / ELISA,<1 µM
Cc1cc(S(N)(=O)=O)ccc1NC(=O)COc1ccc(Cl)cc1C(=O)c1cc(F)cc(F)c1,RT-G190A,HeLa + HELA CD4+,HXB2,β-galactosidase,<0.01 µM
C[C@@H]1CCO[C@H]2Cn3cc(C(=O)NCc4ccc(F)cc4F)c(=O)c(O)c3C(=O)N12,L74F/V75I/N155H,MT-4,-,p24 / ELISA / fluorescence,>1 µM
Cc1ccnc2c1NC(=O)c1cccnc1N2C1CC1,V106I,TZM-bl,SF33,p24 / ELISA,0.12 µM
CC1(C)CC=C(c2cn(-c3nccc(C(=O)NC4CCC(N5CC6CCC(C5)O6)CC4)n3)c3ccc(F)c([C@H](OC(C)(C)C)C(=O)O)c23)CC1,L102F,MT-4,NL4-3,luminescence,0.502 µM
CC(C)C1=C2[C@H]3CC[C@@H]4[C@@]5(C)CC[C@H](OC(=O)[C@H]6C[C@@H](C(=O)O)C6(C)C)C(C)(C)[C@@H]5CC[C@@]4(C)[C@]3(C)CC[C@@]2(CCNC(=O)[C@@H]2CCCNC2)CC1=O,-,MT-2,92HT599,p24 / ELISA,<1 µM
CN1c2ccccc2C2C1C=C(C#N)C(=O)N2c1ccc([N+](=O)[O-])cc1,-,HeLa,7295-1,GFP / fluorescence,0.08 µM
CC(C)C1=C2[C@H]3CC[C@@H]4[C@@]5(C)CC[C@H](OC(=O)[C@H]6C[C@@H](C(=O)O)C6(C)C)C(C)(C)[C@@H]5CC[C@@]4(C)[C@]3(C)CC[C@@]2(CC(=O)NCc2ccc(N3CCC(N4CCOCC4)CC3)cc2)CC1=O,-,MT-2,92HT599,p24 / ELISA,<1 µM
Cc1cc(OCCCS(N)(=O)=O)ccc1NC(=O)COc1ccc(Cl)cc1C(=O)c1cc(F)cc(C(F)(F)F)c1,RT-K103N V108I,HeLa + HELA CD4+,HXB2,β-galactosidase,<0.01 µM
CCN(CC)S(=O)(=O)c1ccc(NC(=O)Nc2cccc3c(C(=O)C(=O)N4CCC(=C(C#N)c5ccccc5)CC4)c[nH]c23)cc1,-,HeLa,-,luciferase / reporter gene,<1 µM
Cc1cc2[nH]cnc2cc1NC(=O)COc1ccc(Cl)cc1C(=O)c1cc(F)cc(C(F)(F)F)c1,RT-V106A Y181C,HeLa + HELA CD4+,HXB2,β-galactosidase,0.101–1 µM
Cc1ncc(-c2ccc(OCCn3cc(-c4ccccc4)cn3)cn2)c(N2CCC(C)(C)CC2)c1[C@H](OC(C)(C)C)C(=O)O,-,MT-2,NL4-3,luminescence,0.0037 µM
CC(C)CN(C[C@@H](O)[C@H](Cc1ccccc1)NC(=O)O[C@H]1CO[C@H]2OCC[C@H]21)S(=O)(=O)c1ccc2nc(NC3CCN(C4CCCC4)CC3)sc2c1,V32I I50V L76V G73S V82I,MT-4,T13717,reporter gene,68 nM
N#CC(=C1CCN(C(=O)C(=O)c2c[nH]c3c(NC(=O)Nc4ccc(C(=O)C(F)(F)F)cc4)cccc23)CC1)c1ccccc1,-,HeLa,-,luciferase / reporter gene,<1 µM
Cc1ncc(-c2ncc(NCCOc3ccccc3)c(N)n2)c(N2CCC(C)(C)CC2)c1[C@H](OC(C)(C)C)C(=O)O,-,MT-2,NL4-3,luminescence,0.02 µM
Nc1nc(NC2CC2)c2ncn([C@H]3C=C[C@@H](CO)C3)c2n1,M184V,MT-2,Clinical isolate,recombinant virus assay,0.308 µM
Cc1nc2ccccc2c(-c2cc(F)c3c(c2C)CCCO3)c1[C@H](OC(C)(C)C)C(=O)O,V201I,MT-4,NL4-3,luminescence,0.032 µM
CCCc1cc(=O)oc2c3c(c4c(c12)OC(C)(C)CC4)O[C@@H](C)[C@H](C)[C@@H]3O,RT-Y181C,CEM + CEM-SS,NL4-3,XTT,<0.06 µM
Cc1cc(C#N)cc(C(=O)c2cc(Cl)ccc2OCC(=O)Nc2ccc(S(N)(=O)=O)nc2C)c1,-,MT-4,IIIB,cytopathic effect / propidium iodide,<0.01 µM
COc1ccccc1C(=O)Nc1ccc(Cl)c(C(=O)OC(C)C)c1,RT-Y181C,CEM + CEM-SS,UC82-R (RT-Y181C),cytopathic effect / XTT,14.2 µM
Cc1ncc(-c2ccc(N(C)CCOc3ccc(Cl)cc3F)cn2)c(N2CCC(C)(C)CC2)c1[C@H](OC(C)(C)C)C(=O)O,-,MT-2,NL4-3,luminescence,0.002 µM
Cc1cc(N2CCS(=O)CC2)ccc1NC(=O)COc1ccc(Cl)cc1C(=O)c1cccs1,RT-K103N Y181C,HeLa + HELA CD4+,HXB2 (RT-K103N Y181C) Recombinant,β-galactosidase,1–3 µM
CC(C)C1=C2[C@H]3CC[C@@H]4[C@@]5(C)CC[C@H](OC(=O)[C@H]6C[C@@H](C(=O)O)C6(C)C)C(C)(C)[C@@H]5CC[C@@]4(C)[C@]3(C)CC[C@@]2([C@@H](O)CNCC(C)(C)NC(=O)c2ccc(Cl)c(Cl)c2)CC1=O,-,MT-2,92HT599,p24 / ELISA,<1 µM
CCOCC(C)Oc1ncc(-c2cnc(C)c([C@H](OC(C)(C)C)C(=O)O)c2N2CCC(C)(C)CC2)cc1F,-,MT-2,NL4-3,luminescence,0.0028 µM
CC(C)C1=C2[C@H]3CC[C@@H]4[C@@]5(C)CC[C@H](OC(=O)[C@H]6C[C@@H](C(=O)O)C6(C)C)C(C)(C)[C@@H]5CC[C@@]4(C)[C@]3(C)CC[C@@]2(CCN(CCN(C)C)C(=O)c2cc(C(C)C)[nH]n2)CC1=O,-,MT-2,92HT599,p24 / ELISA,<1 µM
CCC(=O)c1ccc(F)c([C@@H]2C[C@@H]2NC(=O)Nc2ccc(C#N)cn2)c1O,NNRTI-resistant (RT M230L),TZM-bl,LAI,β-galactosidase / luminescence,0.0153 µM
CC(C)C1=C2[C@H]3CC[C@@H]4[C@@]5(C)CC[C@H](OC(=O)[C@H]6C[C@@H](C(=O)O)C6(C)C)C(C)(C)[C@@H]5CC[C@@]4(C)[C@]3(C)CC[C@@]2([C@@H](O)CNCC(C)(C)NC(=O)c2ccc(Cl)cc2O[C@@H]2CCOC2)CC1=O,-,MT-2,92HT599,p24 / ELISA,<1 µM
O=C(O)c1cc(-n2cccc2)ccc1Cl,-,PBMC + MT-2,92US657 R5 CLADE B,p24,29.73 µM
Cc1cc(C#N)cc(C(=O)c2cc(Cl)ccc2OCC(=O)Nc2ccc(S(N)(=O)=O)cc2C)c1,RT-Y181C,HeLa + HELA CD4+,HXB2,β-galactosidase,<0.01 µM
N#CC1=CC2Nc3ccccc3C2N(c2ccc([N+](=O)[O-])cc2)C1=O,-,HeLa,52534-2,GFP / fluorescence,0.19 µM
CC(C)=CCOc1cc(NC(=S)c2ccoc2C)ccc1Cl,-,CEM + CEM-SS,4XAZT+Y181C,cytopathic effect / XTT,0.2 µM
Cc1ncc(-c2ccc(NCCOc3ccccc3)nc2)c(N2CCC(C)(C)CC2)c1[C@H](OC(C)(C)C)C(=O)O,-,MT-2,NL4-3,luminescence,0.004 µM
N#CC(=C1CCN(C(=O)C(=O)c2c[nH]c3c(NC(=O)Nc4ccc(C#N)cc4)cccc23)CC1)c1ccccc1,-,HeLa,-,luciferase / reporter gene,<1 µM
CC(C)=CCOc1cc(NC(=S)c2ccsc2C)ccc1Cl,RT-Y188H,CEM + CEM-SS,Costatolide-resistant (RT Y188H),cytopathic effect / XTT,0.07 µM
Cc1cccc(Cl)c1OCCN(C)c1ccc(-c2cnc(C)c([C@H](OC(C)(C)C)C(=O)O)c2N2CCC(C)(C)CC2)nc1,-,MT-2,NL4-3,luminescence,0.004 µM
C[C@@H]1CN(C(=O)c2ccccc2)CCN1C(=O)C(=O)c1c[nH]c2c(NC(=O)Nc3cc(C(=O)O)cc(C(=O)O)c3)cccc12,-,HeLa,-,luciferase / reporter gene,<1 µM

Repeating the final 4 entries:

SMILES	mutations	cells	strain or isolate	read by	result
N#CC(=C1CCN(C(=O)C(=O)c2c[nH]c3c(NC(=O)Nc4ccc(C#N)cc4)cccc23)CC1)c1ccccc1	-	HeLa	-	luciferase / reporter gene	<1 µM
CC(C)=CCOc1cc(NC(=S)c2ccsc2C)ccc1Cl	RT-Y188H	CEM + CEM-SS	Costatolide-resistant (RT Y188H)	cytopathic effect / XTT	0.07 µM
Cc1cccc(Cl)c1OCCN(C)c1ccc(-c2cnc(C)c([C@H](OC(C)(C)C)C(=O)O)c2N2CCC(C)(C)CC2)nc1	-	MT-2	NL4-3	luminescence	0.004 µM
C[C@@H]1CN(C(=O)c2ccccc2)CCN1C(=O)C(=O)c1c[nH]c2c(NC(=O)Nc3cc(C(=O)O)cc(C(=O)O)c3)cccc12	-	HeLa	-	luciferase / reporter gene	<1 µM